A mixed list of measured activities; the numbers were collected in NIAID ChemDB.

Shared fields: tests on isolated targets; agent: Hepatitis C virus; target: Nonstructural protein 5B

ICn: concentration for n% inhibition. An empty or dashed field is not shown. Two numbers with a dash give a range or band. Percent inhibition refers to the dose given; in toxicity tests it is the harm to the cells. Conditions beyond the fields shown may differ between rows. Fold resistance: result on the changed form divided by that on wild type.

smiles | strain or isolate | mutations | method | endpoint | dose | value
CCOc1cc2c(C(=O)NC)c(-c3ccc(F)cc3)oc2cc1N(C)S(C)(=O)=O |  |  |  | IC50 |  | ≤0.5 µM
COCCNc1nc(Nc2ccc3[nH]ncc3c2)nc(OC)n1 |  |  |  | inhibition | 0.1 µg/mL | 46%
CNC(=O)c1c(-c2ccc(F)cc2)oc2cc(N3CCOCC3)c(OCc3cccc(OC)c3)cc12 |  |  |  | IC50 |  | ≤0.5 µM
Cc1cc(SC2=C(O)CC(CCc3cc(Cl)c(N)c(Cl)c3)(C3CCCCC3)OC2=O)c(C(C)(C)C)cc1OS(=O)(=O)c1ccc(C#N)cc1 |  |  |  | IC50 |  | 1–10 µM
CNC(=O)c1c(-c2ccc(F)cc2)oc2cc(C3(C)NC(=O)NC3=O)c(OC)cc12 |  |  |  | IC50 |  | ≤0.5 µM
COc1nc(Nc2ccc3[nH]ncc3c2)nc(NN2CCOCC2)n1 |  |  |  | inhibition | 10 µg/mL | 62%
COc1ccc(CCC2(C3CCCC3)CC3=C(CCCO3)C(=O)O2)c(OC)c1 |  |  |  | IC50 |  | >50 µM
CCCc1ccc(-c2ccc(C=C3SC(=S)N(c4ccc(C(=O)O)cc4)C3=O)o2)s1 |  |  |  | IC50 |  | ≤1 µM
CNC1N=C(OC)N=C(Nc2ccc3cn[nH]c3c2)N1CN |  |  |  | inhibition | 10 µg/mL | 35%
CC(C)CNc1cc(C(=O)Nc2ccc3cn[nH]c3c2)c(F)cc1F |  |  |  | inhibition | 10 µg/mL | 30%
O=C(O)c1ccc(N2C(=O)C(=Cc3ccc(-c4ccccc4[N+](=O)[O-])o3)SC2=S)cc1 |  |  |  | IC50 |  | ≤1 µM
COc1nc(Nc2ccc3[nH]ncc3c2)nc(N2CCC(O)CC2)n1 |  |  |  | inhibition | 10 µg/mL | 34%
COc1ccc(CCC2(C3CCCC3)CC(O)=C(Sc3nc(C)c(CC(=O)O)s3)C(=O)O2)cc1 |  |  |  | IC50 |  | <1 µM
CN(C)C(=O)c1ccc(S(=O)(=O)Nc2ccc(N3CCOCC3)cc2)cc1 |  |  |  | inhibition | 0.1 µg/mL | 53%
CCCc1ccc(-c2ccc(C=C3SC(=S)NC3=O)s2)cc1 |  |  |  | IC50 |  | ≤1 µM
C[C@@]1(O)[C@H](O)[C@@H](COP(=O)([O-])OP(=O)([O-])OP(=O)([O-])O)O[C@H]1n1cnc2c(N)nc(N)nc21 | GT1b | S282T | nucleotide incorporation | fold resistance |  | 10
CNC(=O)c1c(-c2ccc(F)cc2)oc2cc(N3CCOCC3)c(OCc3ccc(C(=O)OC)cc3)cc12 |  |  |  | IC50 |  | ≤0.5 µM
CC(C)Oc1cccc(CCC2(C3CCCC3)CC(=O)CC(=O)O2)c1 |  |  |  | IC50 |  | 1–10 µM
CNC(=O)c1c(-c2ccc(F)cc2)oc2cc(-c3c(C)n[nH]c3C)c(OC(C)C)cc12 |  |  |  | IC50 |  | ≤0.5 µM
O=C(O)CCN1C(=O)C(=Cc2ccc(-c3ccc(Cl)s3)o2)SC1=S |  |  |  | IC50 |  | ≤1 µM
Cc1cc(SC2=C(O)CC(CCc3cccc(O)c3)(c3ccccc3)OC2=O)c(C(C)(C)C)cc1CO |  |  |  | IC50 |  | >50 µM
O=C(Nc1ccc2[nH]ncc2c1)c1cc(NCCN2CCCC2)c(F)cc1F |  |  |  | inhibition | 10 µg/mL | 74%
CNC(=O)c1c(-c2ccc(F)cc2)oc2cc(N(C)S(C)(=O)=O)c(OCC(=O)Nc3nc(C)c(C)s3)cc12 |  |  |  | IC50 |  | ≤0.5 µM
COc1nc(NCCO)nc(Nc2ccc3[nH]ncc3c2)n1 |  |  |  | inhibition | 0.1 µg/mL | 10%
C=Cc1cc2oc(-c3ccc(F)cc3)c(C(=O)NC)c2cc1OC(C)C |  |  |  | IC50 |  | ≤0.5 µM
CCN(CC)C(=O)c1c(OC)cccc1-c1ccc(C=C2SC(=S)N(c3ccc(C(=O)O)cc3)C2=O)o1 |  |  |  | IC50 |  | ≤1 µM
CNC(=O)c1c(-c2ccc(F)cc2)oc2cc(N(Cc3c(C)noc3C)S(C)(=O)=O)c(OC(C)C)cc12 |  |  |  | IC50 |  | ≤0.5 µM
Cc1cc(NS(=O)(=O)c2ccc(C(F)(F)F)cn2)c(C(C)(C)C)c(SC2=C(O)CC(C3CCCC3)(C3CCCC3)OC2=O)c1 |  |  |  | IC50 |  | 10–50 µM

A second listing of 3 rows from above:

smiles	strain or isolate	mutations	method	endpoint	dose	value
CNC(=O)c1c(-c2ccc(F)cc2)oc2cc(-c3c(C)n[nH]c3C)c(OC(C)C)cc12				IC50		≤0.5 µM
CN(C)C(=O)c1ccc(S(=O)(=O)Nc2ccc(N3CCOCC3)cc2)cc1				inhibition	0.1 µg/mL	53%
CNC(=O)c1c(-c2ccc(F)cc2)oc2cc(N(Cc3c(C)noc3C)S(C)(=O)=O)c(OC(C)C)cc12				IC50		≤0.5 µM